PubChem BioAssay AID624099 – ICCB-Longwood – 2012
Aim: 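Human genes that papillomavirus E2 requires to repress the HPV18 LCR promoter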 (primary screen). System: human C33A cervical carcinoma cells (HPV-negative) stably expressing BPV1 E2 and an HPV18 LCR luciferase reporter. Knock-down reagent: siRNA pool against human genes, 40 nM. Timing: 72 h. Detection: 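Per-well luciferase luminescence, z-scored on each plate against the plate mean and SD with control wells left out, then averaged across three replicate plates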. Scale: mean z-score and z-score: higher = stronger reporter signal, weaker E2 silencing. Active means: 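Mean z ≥ 2 together with z ≥ 2 in two or more of the three replicates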.
The whole screen tested about 21,000 reagents; this is a part drawn at random. Of all reagents, 497 (2.4%) got an active call. 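Higher z means weaker E2 silencing; only reporter increases were scored, and knock-downs that hurt cell survival may mask genuine repressor factors.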 A number with no mark means an inactive call. The numbers tell different reagents against one gene apart. Reagent sequences are not shown.

| gene symbol | pool no. | mean z-score | z-score, replicate A | z-score, replicate B | z-score, replicate C |
| --- | --- | --- | --- | --- | --- |
| DMRTB1 (GeneID 63948) | 1 | 0.35 | -0.05 | 0.55 | 0.57 |
| GATA2 (GeneID 2624) | 1 | -0.89 | -0.65 | -1.06 | -0.97 |
| CD83 (GeneID 9308) | 1 | 0.13 | 0.11 | 0.3 | -0.02 |
| GBF1 (GeneID 8729) | 1 | -2.86 | -3.01 | -2.4 | -3.19 |
| TRUB1 (GeneID 142940) | 1 | -0.75 | -1.4 | -0.69 | -0.14 |
| TTBK2 (GeneID 146057) | 1 | 0.36 | 0.49 | -0.01 | 0.62 |
| TUBB1 (GeneID 81027) | 1 | -0.57 | -0.66 | -0.61 | -0.45 |
| CSMD2 (GeneID 114784) | 1 | -0.3 | 0.06 | -0.55 | -0.42 |
| MORF4L2 (GeneID 9643) | 1 | -1.04 | -0.87 | -1.13 | -1.12 |
| LINC02593 (GeneID 100130417) | 1 | -0.83 | -0.74 | -0.44 | -1.32 |
| CTAG1A (GeneID 246100) | 1 | 0.61 | 0.5 | 0.81 | 0.52 |
| PCDHGC3 (GeneID 5098) | 1 | -0.92 | -0.95 | -0.63 | -1.18 |
| SHROOM4 (GeneID 57477) | 1 | -0.52 | -0.6 | -0.49 | -0.48 |
| PABIR2 (GeneID 159090) | 1 | -0.5 | -0.18 | -0.87 | -0.44 |
| ANTKMT (GeneID 65990) | 1 | -0.14 | 0.04 | -0.45 | 0 |
| SLC2A4RG (GeneID 56731) | 1 | 0.33 | 0 | 0.16 | 0.82 |
| LOC157813 (retired record) (GeneID 157813) | 1 | 0.55 | 0.61 | 0.69 | 0.33 |
| ITGAD (GeneID 3681) | 1 | -0.68 | -0.65 | -0.65 | -0.75 |
| ZFHX2 (GeneID 85446) | 1 | 0.98 | 1.12 | 1.34 | 0.47 |
| ZFHX2 (GeneID 85446) | 2 | -1.52 | -1.43 | -1.92 | -1.21 |
| ANKRD23 (GeneID 200539) | 1 | -1.49 | -1.59 | -1.39 | -1.47 |
| DAZ3 (GeneID 57054) | 1 | 0.3 | 0.42 | 0.36 | 0.11 |
| THRA (GeneID 7067) | 1 | -1.56 | -1.33 | -1.83 | -1.52 |

4 of these entries, reformatted:
gene symbol,pool no.,mean z-score,"z-score, replicate A","z-score, replicate B","z-score, replicate C"
GATA2 (GeneID 2624),1,-0.89,-0.65,-1.06,-0.97
CD83 (GeneID 9308),1,0.13,0.11,0.3,-0.02
GBF1 (GeneID 8729),1,-2.86,-3.01,-2.4,-3.19
TRUB1 (GeneID 142940),1,-0.75,-1.4,-0.69,-0.14
